For this experiment, the system named is MRSA. Nature of the experiment: Number of cells after 24 hour incubation in 5% FBS-added CAMHB. The settings on record: initial 6.1 × 10^5, 5% FBS CAMHB.

Numbered stars: 1 amine (or outer) side, 2 acyl side, 3 side chain; on linkers, the order of the positions; unused ones are H or OH. Bridge positions count the residues as written; N and C are the ends. Square brackets hold non-standard residues; d marks the D form. Peptide text beside a SMILES is read from it. ξ: configuration not given here. ξAsn(3ξ-OH) = NC(=O)C(O)C(N)C(=O)O; X1 = CC(C)CCCC(CC(=O)[*:1])O[*:2]; NMeF = CN[CH](Cc1ccccc1)C(=O)O; NMeV = CN[CH](C(=O)O)C(C)C; Orn = NCCC[CH](N)C(=O)O

For the compound `OB(O)O` [Boric acid], the “Number of cells After 24 hours” value is, setting by setting: (boric acid 1250 μg/mL alone) 1.5 × 10^7 CFU/mL; (boric acid 2500 μg/mL alone) 1.9 × 10^6 CFU/mL.

Consider `CC(C)CCCC1CC(=O)NC(CO)C(=O)NC(C(O)C(N)=O)C(=O)NC(CO)C(=O)NCC(=O)N(C)C(Cc2ccccc2)C(=O)NC(CC(C)C)C(=O)NC(CCCN)C(=O)NC(CCC(=O)O)C(=O)NC(CC(N)=O)C(=O)NC(Cc2c[nH]c3ccccc23)C(=O)NC(CCCN)C(=O)N(C)C(C(C)C)C(=O)O1` (stereo not shown) [Lotilibcin, lotilibcin] (S[ξAsn(3ξ-OH)]SG[NMeF]L[Orn]ENW[Orn][NMeV]; linker N-C via X1; configuration not given here), for which the “Number of cells After 24 hours” value was 2.3 × 10^5 CFU/mL (lotilibcin 0.25 μg/mL alone) and 7.6 × 10^2 CFU/mL (lotilibcin 2.5 μg/mL alone).

(Values after patent US20210244790A1 (priority 2018, published 2021).)
